{"source": "paper PMC3984054", "about": "(Bioorganic & medicinal chemistry, 2013)", "tested_on": "dividing ScN2a-cl3 cells"}
{"substance": "Dextran", "values": [{"measurement": "LC50 in dividing cells (text and footnote)", "value": "> 10", "unit": "µM"}]}
